# Laboratory results: PubChem BioAssay AID434958 (Southern Research Specialized Biocontainment Screening …, 2010)
# The list shows a part of the results, in another mix than the full data. Measured potencies and affinities stand elsewhere. Active and inactive are the calls of the source. How the calls were made is not given here.
# Test: mammalian cell cytotoxicity, dose response, cytotoxicity control (AID 434958);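 further: cells exposed to compound for 72 hours before readout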
# Conditions: cytotoxicity counter-screen; at 40 µM (top of the series)
row,Structure (SMILES),viability
1,CCOC(=O)Nc1ccc([As](=O)(O)O)c(O)c1,inactive: 102%
2,O=[As](O)(c1ccc(O)cc1)c1ccccc1O,inactive: 104%
3,Nc1ccc([As](=O)(O)c2ccc([N+](=O)[O-])cc2)cc1,inactive: 99.3%
4,Nc1ccc([As](=O)(O)c2ccc(N)cc2)cc1,inactive: 94.7%
